Experimental data: PubChem BioAssay AID1259414 (Drosophila RNAi Screening Center, 2018)

- Screen: 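Fly genes that alter Wolbachia amount inside host cells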 (primary screen)
- Cells: Drosophila JW18 cells infected with Wolbachia
- Reagents: long dsRNA against Drosophila genes, 0.25 µg dsRNA per well of a 384-well plate
- Duration: 5 days
- Conditions: cells persistently infected with Wolbachia before knock-down; no added drug
- Read-out: 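Automated imaging of bacterial rRNA staining divided by host cell count, reported as plate-normalised robust z-score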
- Direction: Wolbachia per cell robust z: higher = more Wolbachia per host cell than the plate typical
- Call rule: 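Active if absolute robust z reaches 1.5 in two or more of three replicates, leaving out multi- or no-target dsRNAs, genes unexpressed in JW18 and A1 wells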
The screen tested about 24,000 reagents; shown is an unselected part of those with a known target gene and a result. Of all reagents, about 1,210 (5%) are marked active. 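Inactive calls also include excluded dsRNAs with several or no targets, genes unexpressed in JW18, and well A1, regardless of score.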 The numbers tell different reagents against one gene apart.

target | reagent | Wolbachia per cell robust z, rep 1 | Wolbachia per cell robust z, rep 2 | Wolbachia per cell robust z, rep 3 | call
CG5704 | 1 | -2.18 | -0.229 | -0.858 | inactive
CG11816 | 1 | 0.394 | 0.24 | -1.39 | inactive
CG11816 | 2 | -0.199 | -3.73 | -0.395 | inactive
mh | 1 | -0.0688 | 0.654 | -0.64 | inactive
Ccp84Af | 1 | 0.649 | -1.06 | -1.49 | inactive
Ccp84Af | 2 | 0.37 | -0.543 | -1.06 | inactive
ecd | 1 | 1.12 | 0.563 | 0.863 | inactive
CG4546 | 1 | 0.604 | 0.844 | 1.06 | inactive
CG4546 | 2 | 0.375 | 0.243 | 0.181 | inactive
CG4546 | 3 | -0.793 | 1.11 | 0.764 | inactive
Hel89B | 1 | 0.104 | 0.879 | 0.952 | inactive
Hel89B | 2 | 0.103 | -1.11 | 0.0789 | inactive
vex | 1 | 0.783 | 0.715 | 0.579 | inactive
vex | 2 | 0.531 | 0.686 | -0.355 | inactive
vex | 3 | 1.02 | 0.832 | 1.11 | inactive
vex | 4 | 1.22 | -0.158 | 0.126 | inactive
Ku80 | 1 | -0.619 | 0.932 | 0.577 | inactive
Ku80 | 2 | 0.47 | -0.805 | -0.677 | inactive
mRpS9 | 1 | 0.227 | -1.02 | -8.77 | inactive
mRpS9 | 2 | -0.497 | -2.8 | -0.424 | inactive
CG1304 | 1 | -0.569 | -0.224 | -1.42 | inactive
CG1304 | 2 | -3.64 | 0.446 | 1.58 | inactive
srl | 1 | -0.386 | 0.325 | -1.15 | inactive
srl | 2 | 1.13 | 0.128 | 0.817 | inactive
Rbp | 1 | 3.73 | 9.41 | 12.2 | inactive
Rbp | 2 | 0.845 | -0.494 | 0.274 | inactive
Xrcc2 | 1 | -0.365 | -1.94 | -0.822 | inactive
Xrcc2 | 2 | -0.502 | -3.94 | -1.08 | inactive
Ack-like | 1 | 0.493 | -1.01 | -0.981 | inactive
Ack-like | 2 | -0.478 | -2.06 | -1.42 | inactive
Ack-like | 3 | -1.23 | -0.301 | -0.36 | inactive
Hsp70Bc | 1 | 0.112 | -0.776 | -0.579 | inactive

Continued, starting with the last 9 of the part before.
target | reagent | Wolbachia per cell robust z, rep 1 | Wolbachia per cell robust z, rep 2 | Wolbachia per cell robust z, rep 3 | call
srl | 2 | 1.13 | 0.128 | 0.817 | inactive
Rbp | 1 | 3.73 | 9.41 | 12.2 | inactive
Rbp | 2 | 0.845 | -0.494 | 0.274 | inactive
Xrcc2 | 1 | -0.365 | -1.94 | -0.822 | inactive
Xrcc2 | 2 | -0.502 | -3.94 | -1.08 | inactive
Ack-like | 1 | 0.493 | -1.01 | -0.981 | inactive
Ack-like | 2 | -0.478 | -2.06 | -1.42 | inactive
Ack-like | 3 | -1.23 | -0.301 | -0.36 | inactive
Hsp70Bc | 1 | 0.112 | -0.776 | -0.579 | inactive
Atac1 | 1 | -2.64 | -0.709 | 0.482 | inactive
Atg18a | 1 | 0.175 | -8.87 | 0.108 | inactive
CG13494 | 1 | -0.591 | -0.765 | -1.49 | inactive
CG13494 | 2 | 0.635 | 0.00229 | 0.972 | inactive
Frl | 1 | 1.73 | -0.624 | 0.799 | inactive
Frl | 2 | 1.45 | 2.48 | 1.82 | inactive
Frl | 3 | 1.11 | 1.85 | 1.18 | inactive
Frl | 4 | 1.11 | 1.2 | 1.11 | inactive
Mccc1 | 1 | -0.195 | 0.178 | -9.54 | inactive
Mccc1 | 2 | 0.557 | 0.837 | -5.67 | inactive
CG1688 | 1 | 0.315 | 0.875 | 0.116 | inactive
CG2116 | 1 | 0.447 | 0.0063 | -6.75 | inactive
CG2116 | 2 | -1.82 | -1.58 | 0.107 | active
tst | 1 | 0.217 | 0.00961 | -0.279 | inactive
TTLL6B | 1 | -0.321 | 0.867 | 0.723 | inactive
TTLL6B | 2 | 0.79 | 0.407 | 1.39 | inactive
Tom70 | 1 | -0.245 | 0.347 | -0.307 | inactive
Nufip | 1 | 0.362 | 0.593 | 0.538 | inactive
CG14153 | 1 | 0.404 | 0.185 | 0.341 | inactive
CG14153 | 2 | 0.205 | -0.307 | -0.0941 | inactive
Art6 | 1 | -0.315 | -5.95 | -0.327 | inactive
form3 | 1 | -1.93 | -4.92 | -0.446 | active
form3 | 2 | 0.281 | 0.522 | -0.175 | inactive
form3 | 3 | 0.11 | 0.941 | 0.441 | inactive
CG12268 | 1 | 0.393 | 0.0873 | -0.75 | inactive
CG12268 | 2 | -0.162 | -1.96 | 0.0966 | inactive
CG9663 | 1 | -0.306 | -3.22 | -0.944 | inactive
CG3748 | 1 | 0.413 | -0.786 | -0.179 | inactive
CG3748 | 2 | 0.0124 | -0.64 | -0.147 | inactive
CG3748 | 3 | 0.861 | 0.501 | 0.00771 | inactive
GstD8 | 1 | -1.51 | 0.811 | 0.0627 | inactive
GstD8 | 2 | -0.674 | 0.726 | -0.196 | inactive
CG42258 | 1 | -0.625 | -1.65 | -0.549 | inactive
CG42258 | 2 | 0.706 | -0.0407 | 0.038 | inactive
CG42258 | 3 | 0.679 | -1.37 | 0.216 | inactive
CG42258 | 4 | 0.303 | 1.1 | 0.00208 | inactive
